{
  "source": "patent US10570401B2",
  "about": "“Compositions and method for destabilizing, altering, and dispersing biofilms” (priority 2013, dated 2020)",
  "test_system": "S. gordonii",
  "details": "downregulated, low vs high arginine; average across the locus",
  "data": [
    {"smiles": "N=C(N)NCCC[C@H](N)C(=O)O", "note": "[L-arginine]", "values": [
      {"measurement": "Fold Change, SGO_1575-1582 Bfb locus, biofilm formation and cellobiose PTS", "value": "−30.2"}
    ]}
  ]
}
